A mixed list of measured activities; the numbers were collected in NIAID ChemDB.

Shared fields: whole-cell or culture tests

A number after MIC or MFC names an inhibition level or a share of isolates. Blank or dashed fields: not listed here. Lines come from different laboratories, so protocols vary. Two numbers with a dash give a range or band. Inhibition is in % at the dose shown (toxicity tests: loss of growth or viability).

compound,tested at,strain,endpoint,read by,species,conditions,value
CC(C)=CCC/C(C)=C/CNc1ncnc2ccoc12,,,MIC50,luminescence,Mycobacterium bovis BCG,,>20 µM
Nc1nc(N)c2c(n1)NC(c1ccc3c(c1)OCO3)CC(c1ccc(Cl)cc1)=N2,,MNT1100,MIC,MTT / broth dilution / absorbance,Mycobacterium szulgai,clinical isolate,16 µg/mL
FC(F)(F)Oc1ccc(Oc2ccc(Nc3ncnc4cc(Br)ccc34)cc2)cc1,,,MIC50,luminescence,Mycobacterium bovis BCG,,>20 µM
CSc1nc(N)c2c(n1)NC(c1ccc(Cl)cc1)CC(c1ccc3c(c1)OCO3)=N2,,MNT1100,MIC,MTT / broth dilution / absorbance,Mycobacterium szulgai,clinical isolate,>32 µg/mL
CO[C@H]1/C=C/O[C@@]2(C)Oc3c(C)c(O)c4c(O)c(c5c(c4c3C2=O)NC2(CCN(CC(C)C)CC2)N=5)=NC(=O)/C(C)=C\C=C\[C@H](C)[C@H](O)[C@@H](C)[C@@H](O)[C@@H](C)[C@H](OC(C)=O)[C@@H]1C,,N-961 (HIV+),MIC,,Mycobacterium avium complex,,0.25 µg/mL
Cc1ccc2nc(C)c(C(=O)NCc3ccc(Oc4cccc(C(F)(F)F)c4)cc3)n2c1,0.13 µM,,inhibition,fluorescence,Mycobacterium avium,,85%
O=C1C(Oc2cccc(N3CC(c4nnco4)CC3=O)c2)=C(Oc2cccc(N3CC(c4nnco4)CC3=O)c2)C(=O)c2ccccc21,,B-917,MIC,,Mycobacterium luteum,,125 µg/mL
c1ccc2c(NCCN3CCOCC3)ncnc2c1,,,MIC50,luminescence,Mycobacterium bovis BCG,,>20 µM
CCN1CCc2c(sc(NC(=O)c3c(F)c(F)c(F)c(F)c3F)c2C(=O)NC)C1,,bolletii 103,MIC,resazurin / turbidity,Mycobacterium abscessus,,>100 µM
c1ccc(Oc2ccc(Nc3ncnc4ccccc34)cc2)cc1,,,MIC50,luminescence,Mycobacterium bovis BCG,,>20 µM
CC1(C)N=C(N)N=C(N)N1OCCCOc1cc(Cl)c(Cl)cc1Cl,,DW27,MIC,,Mycobacterium avium complex,,2 µg/mL
Cc1nc(NCCc2ccc(OC(F)(F)F)cc2)c2ccccc2n1,,,MIC50,luminescence,Mycobacterium bovis BCG,,9.5 µM
C[C@@H]1CN(c2c(F)c(N)c3c(=O)c(C(=O)O)cn(C4CC4)c3c2F)C[C@H](C)N1,,ATCC 19981,MIC,broth dilution / visual reading,Mycobacterium scrofulaceum,,0.5 µg/mL
COc1ccc(C2=Nc3c(N)nc(N)nc3NC(c3ccc4c(c3)OCO4)C2)cc1,,MNT1193,MIC,MTT / broth dilution / absorbance,Mycobacterium scrofulaceum,clinical isolate,>32 µg/mL
FC(F)(F)c1ccc(Oc2ccc(Nc3ncnc4cc(Cl)ccc34)cc2)cc1,,,MIC50,luminescence,Mycobacterium bovis BCG,,>20 µM
NCCS,,Clinical isolate MR313367D,MIC100,broth dilution / visual reading,Mycobacterium abscessus,,62.5–125 µg/mL
FC(F)(F)c1ccccc1CCNc1ncnc2ccccc12,,,MIC50,luminescence,Mycobacterium bovis BCG,,>50 µM
Cc1nc2ccc(F)cn2c1C(=O)NCc1ccc(N2CCN(c3ccc(OC(F)(F)F)cc3)C(C)(C)C2)c(F)c1,0.068 µM,,inhibition,fluorescence,Mycobacterium avium,,85%
FC(F)(F)Oc1ccc(CCNc2ncnc3ccccc23)cc1,,,MIC50,luminescence,Mycobacterium bovis BCG,,>20 µM
C=C1C(=O)[C@@]23C(=O)O[C@H]4CCC(C)(C)[C@H]5[C@H](O)OC[C@@]45[C@@H]2CC[C@@H]1[C@H]3OC(=O)c1ccccc1,,ATCC 355,MIC,resazurin,Mycobacterium phlei,,1 µg/mL
FC(F)(F)Oc1ccc(CCNc2ncnc3ccsc23)cc1,,,MIC50,luminescence,Mycobacterium bovis BCG,,>50 µM
CCc1nc2ccc(Cl)cn2c1C(=O)NCc1ccc(C2CCN(c3ccc(OC(F)(F)F)cc3)CC2)c(Cl)c1.Cl,0.06 µM,,inhibition,fluorescence,Mycobacterium avium,,85%
CSc1nc(N)c2c(n1)NC(c1ccc(C(F)(F)F)cc1)CC(c1ccc3c(c1)OCO3)=N2,,MNT1193,MIC,MTT / broth dilution / absorbance,Mycobacterium scrofulaceum,clinical isolate,>32 µg/mL
COc1ccc2ncnc(NCCc3ccc(OC(F)(F)F)cc3)c2c1,,,MIC50,luminescence,Mycobacterium bovis BCG,,>20 µM
CC(C)N=C(N)/N=C(\N)NOCCCOc1cc(Cl)c(Cl)cc1Cl,,800,MIC,,Mycobacterium avium complex,,64 µg/mL
Fc1ccc2c(Nc3ccc(N4CCN(c5ccc(C(F)(F)F)cc5)CC4)cc3)ncnc2c1,,,MIC50,luminescence,Mycobacterium bovis BCG,,>10 µM
CSc1nc(N)c2c(n1)NC(c1ccccc1)CC(c1ccc3c(c1)OCO3)=N2,,MNT1193,MIC,MTT / broth dilution / absorbance,Mycobacterium scrofulaceum,clinical isolate,>32 µg/mL
CC[C@H]1OC(=O)[C@H](C)[C@@H](O[C@H]2C[C@@](C)(OC)[C@@H](O)[C@H](C)O2)[C@H](C)[C@@H](O[C@@H]2O[C@H](C)C[C@H](N(C)C)[C@H]2O)[C@](C)(OC)C[C@@H](C)C(=O)[C@H](C)[C@@H](O)[C@]1(C)O,,N-316 (HIV-),MIC,,Mycobacterium avium complex,,1 µg/mL
[2H]c1c(C([2H])([2H])[2H])c([2H])n2c(C(=O)NCc3ccc(Oc4cccc(C(F)(F)F)c4)cc3)c(C)nc2c1[2H],0.23 µM,,inhibition,fluorescence,Mycobacterium avium,,85%
FC(F)(F)c1ccc(Oc2ccc(Nc3ncnc4ccoc34)cc2)cc1,,,MIC50,luminescence,Mycobacterium bovis BCG,,>20 µM
C=C1C(=O)[C@@]23C(CC[C@@H]1[C@H]2OC(=O)c1ccc(F)cc1)[C@@]12COC3(O)[C@@H](O)[C@@H]1C(C)(C)CC[C@@H]2OC(C)=O,,ATCC 355,MIC,resazurin,Mycobacterium phlei,,4 µg/mL
c1ccc2c(Nc3ccc(N4CCOCC4)cc3)ncnc2c1,,,MIC50,luminescence,Mycobacterium bovis BCG,,>50 µM
C=C1C(=O)[C@@]23C(=O)O[C@H]4CCC(C)(C)[C@H]5C(=O)OC[C@@]45[C@@H]2CC[C@@H]1[C@H]3OC(=O)c1ccccc1,,ATCC 355,MIC,resazurin,Mycobacterium phlei,,1 µg/mL
CN[C@@H]1[C@H](O[C@H]2[C@H](O[C@H]3[C@H](O)[C@@H](O)[C@H](N=C(N)N)[C@@H](O)[C@@H]3N=C(N)N)O[C@@H](C)[C@]2(O)C=O)O[C@@H](CO)[C@H](O)[C@H]1O,,N-980 (HIV+),MIC,,Mycobacterium avium complex,,4 µg/mL
CO[C@H]1/C=C/O[C@@]2(C)Oc3c(C)c(O)c4c(O)c(c(/C=N/N5CCN(C6CCCC6)CC5)c(O)c4c3C2=O)NC(=O)/C(C)=C\C=C\[C@H](C)[C@H](O)[C@@H](C)[C@@H](O)[C@@H](C)[C@H](OC(C)=O)[C@@H]1C,,21 strains,MIC90,,Mycobacterium avium intracellulare,,1 µg/mL
C=C1C(=O)[C@@]23C(=O)O[C@H]4CCC(C)(C)[C@H]5C(=O)OC[C@@]45[C@@H]2CC[C@@H]1[C@H]3OC(=O)c1ccc(F)cc1,,ATCC 355,MIC,resazurin,Mycobacterium phlei,,4 µg/mL
COC(=O)C1CC(=O)N(c2cccc(OC3=C(Cl)C(=O)c4ccccc4C3=O)c2)C1,,B-917,MIC,,Mycobacterium luteum,,62.5 µg/mL
CO[C@H]1/C=C/O[C@@]2(C)Oc3c(C)c(O)c4c(=O)c(c5oc6cc(N7CCN(CC(C)C)CC7)cc(=O)c6nc5c4c3=C2O)NC(=O)/C(C)=C\C=C\[C@H](C)[C@H](O)[C@@H](C)[C@@H](O)[C@@H](C)[C@H](OC(C)=O)[C@@H]1C,,Isolate 5155,MIC,,Mycobacterium ulcerans,,0.025 µg/mL
c1ccc(CCNc2ncnc3ccsc23)cc1,,,MIC50,luminescence,Mycobacterium bovis BCG,,>50 µM
CCOC(=O)c1c(NC(=O)c2c(F)c(F)c(F)c(F)c2F)sc2c1CCNC2,,,MIC,turbidity,Mycobacterium abscessus,,1.7 µM
CS(=O)(=O)c1ccc(Oc2ccc(Nc3ncnc4cc(F)ccc34)cc2)cc1,,,MIC50,luminescence,Mycobacterium bovis BCG,,>50 µM
COc1ccn2nc(C)c(C(=O)NCc3ccc(N4CCN(c5ccc(OC(F)(F)F)cc5)[C@H](C)C4)c(F)c3)c2c1.Cl,0.0053 µM,,inhibition,fluorescence,Mycobacterium avium,,85%
NCC[C@H](O)C(=O)N[C@@H]1C[C@H](N)[C@@H](O[C@H]2O[C@H](CN)[C@@H](O)[C@H](O)[C@H]2O)[C@H](O)[C@H]1O[C@H]1O[C@H](CO)[C@@H](O)[C@H](N)[C@H]1O,,,MIC50,broth dilution,Mycobacterium chelonae,,8 µg/mL
CCCCCCCN1CCc2c(sc(NC(=O)c3c(F)c(F)c(F)c(F)c3F)c2C(=O)OCC)C1,,,MIC,turbidity,Mycobacterium abscessus,,>100 µM
C=C1C(=O)[C@@]23C(=O)O[C@H]4CCC(C)(C)[C@H]5C(=O)OC[C@@]45[C@@H]2CC[C@@H]1[C@H]3OC(=O)C1CCCC1,,ATCC 355,MIC,resazurin,Mycobacterium phlei,,1 µg/mL

A second listing of 5 rows from above:

compound,tested at,strain,endpoint,read by,species,conditions,value
CSc1nc(N)c2c(n1)NC(c1ccccc1)CC(c1ccc3c(c1)OCO3)=N2,,MNT1193,MIC,MTT / broth dilution / absorbance,Mycobacterium scrofulaceum,clinical isolate,>32 µg/mL
CCc1nc2ccc(Cl)cn2c1C(=O)NCc1ccc(C2CCN(c3ccc(OC(F)(F)F)cc3)CC2)c(Cl)c1.Cl,0.06 µM,,inhibition,fluorescence,Mycobacterium avium,,85%
COc1ccc2ncnc(NCCc3ccc(OC(F)(F)F)cc3)c2c1,,,MIC50,luminescence,Mycobacterium bovis BCG,,>20 µM
C=C1C(=O)[C@@]23C(=O)O[C@H]4CCC(C)(C)[C@H]5C(=O)OC[C@@]45[C@@H]2CC[C@@H]1[C@H]3OC(=O)C1CCCC1,,ATCC 355,MIC,resazurin,Mycobacterium phlei,,1 µg/mL
Cc1nc2ccc(F)cn2c1C(=O)NCc1ccc(N2CCN(c3ccc(OC(F)(F)F)cc3)C(C)(C)C2)c(F)c1,0.068 µM,,inhibition,fluorescence,Mycobacterium avium,,85%